These results are taken from the supplement of paper PMC12637763.

The list shows a part of the results. Env chains of viruses from a treatment-interruption trial, translated from the printed DNA. IC50 / IC80 of two broadly neutralizing antibodies; lower = more sensitive virus; >50 µg/ml means not reached and <0.001 µg/ml is below the lowest dose. No active / inactive call. Some results are limits rather than exact numbers.

Assay [1] deals with antibody 10-1074. Kind of assay: neutralization IC50; higher = virus less sensitive to the antibody. As to the method:
(§1)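 Pseudovirus bearing the Env chain mixed with antibody, from 50 µg/ml in fivefold dilutions, on TZM-bl reporter cells, in duplicate.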

The target of assay [2] is antibody 3BNC117. The assay is described as above. As to the method:
as §1

For assay [3], the target named is antibody 10-1074. The experiment in a line: neutralization IC80; higher = virus less sensitive to the antibody. As for the experimental part: as §1
The target of assay [4] is antibody 3BNC117. The assay is described as above. As to the method: as §1

B1: HIV-1 Env, reservoir clone (protein)
chain: MRVRGMPRSWRHLEKWGLLFLGLLIFCSAKENLWVTVYYGVPVWKEATTTLFCASDAKGYDKEAHNVWATHACVPTDPSPQEIFLENVTENFNMWRNDMVEQMQTDIISLWDESLKPCVKITPLCVTLNCTANITHANVSIPEMRNCSFNTTTEVRDKKQKAYALFYKLDLIQLNESKDSTEYRLINCNASTIRQACPKVSWDPIPIHYCAPAGYAILKCRDKKFNGTGPCKNVSTVQCTHGIKPVVSTQLLLNGSLAEEDIVIRSENISDNTKTIIVSLNEYVQINCTRPSNNTRKGIHVGPGQTLYATGEIIGNIRRAHCNISSTQWNKTLVQVSTKLKSLLNLTEVIFKPPAGGDLEVTMHSFNCRGEFFYCNTSKLFNNTGVLDDSYNETITLPCKIKQIINMWQEVGQAMYAPPIAGNITCNSNITGLLLTRDGGNNTKDNDTFRPGGGDMRNNWRSELYKYKVVEIEPLGVAPTRAKRQVVRRERRAGIGALFLGFLGAAGSTMGAASITLTVQARQLLSGIVQQQSNLLKAIEAQQHLLKLTVWGIKQLQARVLAVERYLKDQQLLGIWGCSGKLICTTNVPWNSSWSNKSYNEIWDNMTWIDWEREISNYSQEIYRLIEQSQNQQEKNEQELLALDKWASLWNWFDITNWLWYIRIFIIIVGGLIGLRIVFAVLTIVNRVRKGYSPLSLQTLIPSPREPDRPEGTEEGGGEQDRDRSVRLVTGFLALVWDDLRNLCLFSYRHLRNFISIAARIVDRGLRRGWETLKYLWNLIKYWGQELKNSAISLFNSTAIVVAEGTDRIIETLQIVIRAVLHIPRRIRQGFERALL
For the molecule B1, the “neutralization IC50” value was determined as 0.003 µg/mL in assay [1] and 46.2 µg/mL in assay [2]. In addition, the “neutralization IC80” value in assay [3] is 0.013 µg/mL; in assay [4], over 50 µg/mL.

B2: HIV-1 Env, reservoir clone (protein)
chain: MKAKETMKNYQHFWRWGIMLLGMLMICSAASQLWVTVYYGVPVWKEATTTLFCASDAKAYDTEVHNVWATHACVPTDPNPQEVVLGNVTEDFNMWKNNMVEQMHEDIISLWDQSLKPCVKITPLCVTLNCTEYSNATSTEWGQMEKGEIKNCSFNVTTNIKNKMQKEYALFYKLDVVPIDNSTNYRLIKCNTSAITQACPKVSFQPIPIHYCAPAGFAILKCNNKTFNGLGPCTNVSTVQCTHGIRPVVSTQLLLNGSLAEEEIVIRSENFSDNAKNIIVHLNTSIEIDCTRPNNNTRKSITIGPGRAFYATGSVIGNIRQAHCNISGEKWNKALKQIAIKLREQFGHNKTIIFNQSSGGDPEIVTHSFNCGGEFFYCNSTKLFNSTWHSNDTRNNTESNETIIIPCKIKQIINLWQEVGKAIYAPPISGPIRCSSNITGLLLTRDGGNISQTNETFRPGGGDMRDNWRSELYKYKVVKIEPLGVAPTKAKRRVVQRERRAVGTFGALFLGFLGAAGSTMGAASITLTVQARQLLSGIVQQQNNLLKAIEAQQHLLQLTVWGIKQLQARVLAVERYLKDQQLLGLWGCSGKLICTTTVPWNASWSNKSLEQIWENMTWMQWEKEIDNYTGIIYSLISESQLQQEKNEKELLELDKWASLWTWFDITNWLWYIKIFIMIVGGLIGLRIVFAVLSIVNKVRKGYSPLSFQTRLPTPRGPDRPEGIEGEGGERGRDTSIRLVDGFLALIWDDLRNLCLFSYHHLRDLILIVVRTVELLGRRGWELLKYWWNLLKYWSQELKKSAVSLFNAAAIAVAEGTDRVIEVVQRAGRGILHVPRRIRQGLERALQ
Consider B2, for which the “neutralization IC50” value was under 0.001 µg/mL in assay [1] and 0.036 µg/mL in assay [2]. The “neutralization IC80” value is 0.004 µg/mL in assay [3] and 0.226 µg/mL in assay [4].

B3: HIV-1 Env, reservoir clone (protein)
chain: MKAKETRKNYQHFWRWGIMLLGMLMICSAASQLWVTVYYGVPVWKEATTTLFCASDAKAYDTEVHNVWATHACVPTDPNPQEVVLGNVTEDFNMWKNNMVEQMHEDIISLWDQSLKPCVKITPLCVTLNCTEYSNATSTIGGQTEKGEIKNCSFNVTTNIKNKMQKEYALFYNLDVVPIDNSTNYRLIKCNTSAITQACPKVSFQPIPIHYCAPAGFAILKCNNKTFNGLGPCTNVSTVQCTHGIRPVVSTQLLLNGSLAEEEIVIRSENFSDNAKNIIVHLNASIEINCARPNNNTRKSITIGPGRAFYATGSVIGNIRQAHCNISGEKWNKALKQIAIKLREQFGHNKTIIFNQSSGGDPEIVTHSLNCGGEFFYCNSTKLFNSTWHSNDTRNNTESNETIIIPCKIKQIINLWQEVGKAIYAPPISGPIRCSSNITGLLLTRDGGNISQTNETFRPGGGDMRDNWRSELYKYKVVKIEPLGVAPTKAKRRVVQRERRAVGTFGALFLGFLGTAGSTMGAASITLTVQARQLLSGIVQQQNNLLKAIEAQQHLLQLTVWGIKQLQARVLAVERYLKDQQLLGLWGCSGKLICTTTVPWNASWSNKSLEQIWENMTWMQWEKEIDNYTGIIYSLISESQLQQEKNEKELLELDKWASLWTWFDITNWLWYIKIFIMIVGGLIGLRIVFAVLSIVNKVRKGYSPLSFQTRLPTPRGPDRPEGIEGEGGERGRDTSIRLVDGFLALIWDDLRNLCLFSYHHLRDLILIVVRTVELLGRRGWELLKYWWNLLKYWSQELKKSAVSLFNAAAIAVAEGTDRVIEVVQRAGRGILHVPRRIRQGLERALQ
On to B3, for which the “neutralization IC50” value in assay [1] was under 0.001 µg/mL; in assay [2] it was 0.034 µg/mL. The results for the “neutralization IC80” value in assay [3] and in assay [4] were under 0.001 µg/mL and 0.121 µg/mL, respectively.

B4: HIV-1 Env, reservoir clone (protein)
chain: MKAKETMKNYQHLWRWGIMLLGMLMICSAASQLWVTVYYGVPVWKEATTTLFCASDAKAYDTEVHNVWATHACVPTDPNPQEVVLGNVTEDFNMWKNNMVEQMHEDIISLWDQSLKPCVKITPLCVTLNCTEYSNATSTEWGQMEKGEIKNCSFNVTTNIKNKMQEEYALFYKVDVVPIGNNSTNYRLIKCNTSAITQACPKVSFQPIPIHYCAPAGFAILKCNNKTFNGLGPCTNVSTVQCTHGIRPVVSTQLLLNGSLAEEEIVIRSENFSDNAKNIIVHLNTSIEINCARPNNNTRKSITIGPGRAFYATGSVIGNIRQAHCNISGEKWNKALKQIAIKLREQFGHNKTIIFNQSSGGDPEIVTHSFNCGGEFFYCNSTKLFNSTWHSNDTRNNTTESNETIIIPCKIKQIINLWQEVGKAIYAPPISGPIRCSSNITGLLLTRDGGNNISQTNETFRPGGGDMRDNWRSELYKYKVVKIEPLGVAPTKAKRRVVQRERRAVGTFGALFLGFLGTAGSTMGAASITLTVQARQLLSGIVQQQNNLLKAIEAQQHLLQLTVWGIKQLQARVLAVERYLKDQQLLGLWGCSGKLICTTTVPWNASWSNKSLEQIWENMTWMQWEKEIDNYTGIIYSLISESQLQQEKNEKELLELDKWASLWTWFDITNWLWYIKIFIMIVGGLIGLRIVFAVLSIVNKVRKGYSPLSFQTRLPTPRGPDRPEGIEGEGGERGRDTSIRLVDGFLALIWDDLRNLCLFSYHHLRDLILIVVRTVELLGRRGWELLKYWWSLLKYWSQELKKSAVSLFNAAAIAVAEGTDRVIEVVQRAGRGILHVPRRIRQGLERDLQ
Turning to B4, the “neutralization IC50” value turned out to be 0.001 µg/mL in assay [1] and 0.027 µg/mL in assay [2]. For the same molecule, the entries for the “neutralization IC80” value in assay [3] and in assay [4] were 0.003 µg/mL and 0.138 µg/mL, respectively.

B5: HIV-1 Env, reservoir clone (protein)
chain: MKAKETMKNYQHLWRWGIMLLGMLMICSAASQLWVTVYYGVPVWKEATTTLFCASDAKAYDTEVHNVWATHACVPTDPNPQEVVLGNVTEDFNMWKNNMVEQMHEDIISLWDQSLKPCVKITPLCVTLNCTEYSNATSTEWGQMEKGEIKNCSFNVTTNIKNKMQEEYALFYKVDVVPIGNNSTNYRLIKCNTSAITQACPKVSFQPIPIHYCAPAGFAILKCNNKTFNGLGPCTNVSTVQCTHGIRPVVSTQLLLNGSLAEEEIVIRSENFSDNAKNIIVHLNTSIEINCARPNNNTRKSITIGPGRAFYATGSVIGNIRQAHCNISGEKWNKALKQIAIKLREQFGHNKTIIFNQSSGGDPEIVTHSFNCGGEFFYCNSTKLFNSTWHSNDTRNNTTESNETIIIPCKIKQIINLWQEVGKAIYAPPISGPIRCSSNITGLLLTRDGGNNISQTNETFRPGGGDMRDNWRSELYKYKVVKIEPLGVAPTKAKRRVVQRERRAVGTFGALFLGFLGTAGSTMGAASITLTVQARQLLSGIVQQQNNLLKAIEAQQHLLQLTVWGIKQLQARVLAVERYLKDQQLLGLWGCSGKLICTTTVPWNASWSNKSLEQIWENMTWMQWEKEIDNYTGIIYSLISESQLQQEKNEKELLELDKWASLWTWFDITNWLWYIKIFIMIVGGLIGLRIVFAVLSIVNKVRKGYSPLSFQTRLPTPRGPDRPEGIEGEGGERGRDTSIRLVDGFLALIWDDLRNLCLFSYHHLRDLILIVVRTVELLGRRGWELLKYWWSLLKYWSQELKKSAVSLFNAAAIAVAEGTDRVIEVVQRAGRGILHVPRRIRQGLERALQ
For the molecule B5, the “neutralization IC50” value in assay [1] is under 0.001 µg/mL; in assay [2], 0.034 µg/mL. In addition, the “neutralization IC80” value is 0.006 µg/mL in assay [3] and 0.182 µg/mL in assay [4].

B6: HIV-1 Env, reservoir clone (protein)
chain: MKAKETMKNYQHLWRWGIMLLGMLMICSAASQLWVTVYYGVPVWKEATTTLFCASDAKAYDTEVHNVWATHACVPTDPNPQEVVLGNVTEDFNMWKNNMVEQMHEDIISLWDQSLKPCVKITPLCVTLNCTEYSNATSTIGGQTEKGEIKNCSFNVTTNIKNKMQKEYALFYNLDVVPIDNSTNYRLIKCNTSAITQACPKVSFQPIPIHYCAPAGFAILKCNNKTFNGLGPCTNVSTVQCTHGIRPVVSTQLLLNGSLAEEEIVIRSENFSDNAKNIIVHLNASIEIDCTRPNNNTRKSITIGPGRAFYATGSVIGNIRQAHCNISGEKWNKALKQIAIKLREQFGHNKTIIFNQSSGGDPEIVTHSFNCGGEFFYCNSTKLFNSTWHSNDTRNNTTESNETIIIPCKIKQIINLWQEVGKAIYAPPISGPIRCSSNITGLLLTRDGGNISQTNETFRPGGGDMRDNWRSELYKYKVVKIEPLGVAPTKAKRRVVQRERRAVGTFGALFLGFLGTAGSTMGAASITLTVQARQLLSGIVQQQNNLLKAIEAQQHLLQLTVWGIKQLQARVLAVERYLKDQQLLGLWGCSGKLICTTTVPWNASWSNKSLEQIWENMTWMQWEKEIDNYTGIIYSLISESQLQQEKNEKELLELDKWASLWTWFDITNWLWYIKIFIMIVGGLIGLRIVFAVLSIVNKVRKGYSPLSFQTRLPTPRGPDRPEGIEGEGGERGRDTSIRLVDGFLALIWDDLRNLCLFSYHHLRDLILIVVRTVELLGRRGWELLKYWWNLLKYWSQELKKSAVSLFNAAAIAVAEGTDRVIEVVQRAGRGILHVPRRIRQGLERALQ
Turning to B6, the “neutralization IC50” value in assay [1] was under 0.001 µg/mL; in assay [2], 0.048 µg/mL. In addition, the figures for the “neutralization IC80” value in assay [3] and in assay [4] were under 0.001 µg/mL and 0.175 µg/mL, respectively.
